Compound potency records, mixed from different reports. Data source: NIAID ChemDB in PubChem.

Common to all: growth or infection tests; agent: Mycobacterium avium intracellulare; measure: MIC

Conditions beyond the fields shown may differ between rows.

smiles | strain | value
CN(C)CCCN1c2ccccc2Sc2ccc(Cl)cc21 | V 915 | 25 µg/mL
CCCCSc1ncnc2ccccc12 | D 38/92 | 32 µM
CO[C@H]1/C=C/O[C@@]2(C)Oc3c(C)c(O)c4c(O)c(c5c(c4c3C2=O)NC2(CCN(CC(C)C)CC2)N=5)=NC(=O)/C(C)=C\C=C\[C@H](C)[C@H](O)[C@@H](C)[C@@H](O)[C@@H](C)[C@H](OC(C)=O)[C@@H]1C | CIPT 140310001 | 0.25 µg/mL
CCOC(=O)C(=O)N=Nc1c(S)n(CC)c2ccccc12 | CNCTC D39/93 | 500 µM
CO[C@H]1/C=C/O[C@@]2(C)Oc3c(C)c(O)c4c(=O)c(c5oc6cc(N7CCN(CC(C)C)CC7)cc(=O)c6nc5c4c3=C2O)NC(=O)/C(C)=C\C=C\[C@H](C)[C@H](O)[C@@H](C)[C@@H](O)[C@@H](C)[C@H](OC(C)=O)[C@@H]1C | N-260 | 0.025 µg/mL
CC1(C)S[C@@H]2[C@H](NC(=O)[C@H](C(=O)[O-])c3ccsc3)C(=O)N2[C@H]1C(=O)[O-].[Na+].[Na+] | CIPT 140310034 | 25 µg/mL
CCCCCCSc1ncnc2ccccc12 | D 39/93 | 125 µM
COc1ccc(CNN(C(=O)c2ccncc2)C(=O)c2cnccn2)cc1 | ATCC 13950 | 8 µg/mL
CCC(C)S/C(N)=N/N=C/c1ccncc1 | CNCT D39/93 | 125 µM
NC[C@H]1O[C@H](O[C@H]2[C@H](O)[C@@H](O[C@H]3O[C@H](CO)[C@@H](O)[C@H](N)[C@H]3O)[C@H](N)C[C@@H]2N)[C@H](O)[C@@H](O)[C@@H]1O | CIPT 140310001 | 10 µg/mL
CCS/C(N)=N/N=C/c1ccc2ccccc2n1.CCS/C(N)=N/N=C/c1ccc2ccccc2n1 | CNCT D39/93 | 32 µM
c1ccc(CSc2ncnc3ccccc23)cc1 | D 39/93 | 63 µM
NC(=S)c1cnccn1 | ATCC 13950 | 100 µg/mL
OCCN1CCN(CCC=C2c3ccccc3Sc3ccc(Cl)cc32)CC1 | R 8411 | 25 µg/mL
CO[C@H]1/C=C/O[C@@]2(C)Oc3c(C)c(O)c4c(O)c(c5c(c4c3C2=O)NC2(CCN(CC(C)C)CC2)N=5)=NC(=O)/C(C)=C\C=C\[C@H](C)[C@H](O)[C@@H](C)[C@@H](O)[C@@H](C)[C@H](OC(C)=O)[C@@H]1C | 1296 | 0.125 µg/mL
CS/C(N)=N/N=C/c1ccc2ccccc2n1 | CNCTC D38/92 | >1000 µM
C/C=C(/C)C(=O)Oc1ccc(OC)cc1C1OC1C | ATCC 19709 | 5 µg/mL
CCS/C(N)=N/N=C/c1ccccc1O | CNCTC D38/92 | 63 µM
CCCSc1ncnc2ccccc12 | D 38/92 | 125 µM
CCCCCN1C(=S)C(=O)c2ccccc21 | CNCTC D39/93 | 32 µM
CC(=O)NC[C@H]1CN(c2ccc(N3CCN(c4ccc([N+](=O)[O-])s4)CC3)c(F)c2)C(=O)O1 | 926/98 | <0.12 µg/mL
CCCCCCCCOC(=O)c1cnccn1 | ATCC 13950 | 200 µg/mL
CO[C@H]1/C=C/O[C@@]2(C)Oc3c(C)c(O)c4c(=O)c(c5oc6cc(N7CCN(CC(C)C)CC7)cc(=O)c6nc5c4c3=C2O)NC(=O)/C(C)=C\C=C\[C@H](C)[C@H](O)[C@@H](C)[C@@H](O)[C@@H](C)[C@H](OC(C)=O)[C@@H]1C | N-481 (HIV-) | 0.0313 µg/mL
CN1C(=S)C(=O)c2ccccc21 | CNCTC D39/93 | 32 µM
Cc1onc(-c2ccccc2Cl)c1C(=O)N[C@@H]1C(=O)N2[C@@H]1SC(C)(C)[C@@H]2C(=O)O | CIPT 140310021 | 100 µg/mL
CO[C@H]1/C=C/O[C@@]2(C)Oc3c(C)c(O)c4c(O)c(c5c(c4c3C2=O)NC2(CCN(CC(C)C)CC2)N=5)=NC(=O)/C(C)=C\C=C\[C@H](C)[C@H](O)[C@@H](C)[C@@H](O)[C@@H](C)[C@H](OC(C)=O)[C@@H]1C | N-551 (HIV-) | 0.4 µg/mL
C=C(CCC=C(C)C)[C@@H]1CC[C@@]2(C)O[C@H]2C1 | ATCC 19709 | 20 µg/mL
COc1ccc(/C=N/N(C(=O)c2ccncc2)C(=O)c2cnccn2)c(O)c1 | ATCC 13950 | >16 µg/mL
OCCN1CCN(CC/C=C2\c3ccccc3Sc3ccc(Cl)cc32)CC1 | E 48067 | 12.5 µg/mL
O=C(c1ccncc1)N(/N=C/c1cccc([N+](=O)[O-])c1)C(=O)c1cnccn1 | ATCC 13950 | >16 µg/mL
CCn1c(S)c(N=NC(N)=[NH2+])c2ccccc21 | CNCTC D39/93 | 125 µM
O=C(c1ccncc1)N(/N=C/c1cccc(Cl)c1)C(=O)c1cnccn1 | ATCC 13950 | >16 µg/mL
C[C@@H]1CN(c2c(F)c(N)c3c(=O)c(C(=O)O)cn(C4CC4)c3c2F)C[C@H](C)N1 | N-499 (HIV-) | 2 µg/mL
O=C(c1ccncc1)N(/N=C/c1ccccc1Cl)C(=O)c1cnccn1 | ATCC 13950 | >16 µg/mL
C=CCSc1ncnc2ccccc12 | D 39/93 | 500 µM

For reference, 2 entries again:

| smiles | strain | value |
|---|---|---|
| CO[C@H]1/C=C/O[C@@]2(C)Oc3c(C)c(O)c4c(O)c(c5c(c4c3C2=O)NC2(CCN(CC(C)C)CC2)N=5)=NC(=O)/C(C)=C\C=C\[C@H](C)[C@H](O)[C@@H](C)[C@@H](O)[C@@H](C)[C@H](OC(C)=O)[C@@H]1C | CIPT 140310001 | 0.25 µg/mL |
| CCCSc1ncnc2ccccc12 | D 38/92 | 125 µM |